# PSTVd loop 6 mutant pool in Nicotiana benthamiana

From the data files of Wu et al. 2024, doi:10.1371/journal.ppat.1012142.

The pool varies loop 6 of the PSTVd intermediate strain in the pattern UNNNCGNNNG; wild type is UGACCGCGAG (upper and lower strand joined, each 5' to 3', the first 5 letters being the upper strand, closing pairs included).

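Three N. benthamiana plants were inoculated with the whole mutant pool. Samples came from the inoculated region at 5 days, the leaf margin at 10 and upper systemic leaves at 12.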

Values are reads per thousand in the sample; higher means more abundant, 0 means not found.
Each value is the mean of three plants.
"Pool" is the share in the plasmid pool used as inoculum, on the same scale.
The inoculated region was read from the minus strand, the other sites from the plus strand.
IR is the inoculated region, LM the leaf margin, Sys the systemic leaves.
Wild type was 20.7 per thousand in the pool and the most common sequence in every sample (inoculated region 195, 198, 203; leaf margin 629, 591, 734; systemic leaves 942, 870, 868).
With 36,220-57,551 reads a sample, very low values are single reads.
The authors trace changes outside the varied positions to PCR and sequencing errors or to mutation in the plant; presence does not show that a variant is infectious alone.

| sequence | pool | IR | LM | Sys |
|---|---|---|---|---|
| UAACCGCUGG | 0.157 | 0.119 | 0.00920 | 0 |
| UAAGCGAACG | 0.301 | 0.0838 | 0 | 0.00684 |
| UAAGCGGCCG | 0.392 | 0.670 | 0.0276 | 0 |
| UAGCCGUGUG | 0.327 | 0.168 | 0.0691 | 0 |
| UAGGCGUCUU | 0.0131 | 0 | 0 | 0 |
| UAGUCGUCUG | 0.275 | 0.0905 | 0 | 0.00673 |
| UAUACGGAGG | 0.261 | 0.102 | 0 | 0 |
| UAUUCGCGGG | 0.144 | 0.0835 | 0.0416 | 0 |
| UAUUCGUGUG | 0.562 | 0.101 | 0.00920 | 0.00684 |
| UCAGCGGGGC | 0.0131 | 0 | 0 | 0 |
| UCCCCGGCCG | 0.288 | 0.0833 | 0 | 0 |
| UCCCCGUGAG | 0.261 | 0.113 | 0.00773 | 0 |
| UCUACGCACG | 0.170 | 0.0777 | 0.0353 | 0 |
| UCUACGCCGG | 0.183 | 0.142 | 0.0169 | 0 |
| UCUCCGCCUG | 0.261 | 0.0774 | 0 | 0 |
| UGACAGUGAG | 0.0131 | 0.489 | 0.0563 | 0.0270 |
| UGACCGCGGG | 0.248 | 0.341 | 0.910 | 0.251 |
| UGACUGACGG | 0.0261 | 0 | 0 | 0 |
| UGAGCGGAUG | 0.235 | 0.636 | 0.0644 | 0.0330 |
| UGAGCGUCCG | 0.222 | 0.101 | 0.00773 | 0 |
| UGAUCGCGGG | 0.275 | 0.0894 | 0 | 0 |
| UGCACGAGCG | 0.222 | 0.0892 | 0.00920 | 0 |
| UGCUCGCCUG | 0.235 | 0.0893 | 0.00773 | 0 |
| UGGGCGAGCG | 0.170 | 0.0587 | 0.00773 | 0 |
| UGGUCGACUG | 0.288 | 0.0840 | 0.00920 | 0 |
| UGUGCGCUAG | 0.170 | 0.0884 | 0.0155 | 0 |
| UGUGCGGCUG | 0.196 | 0.0898 | 0 | 0 |
| UGUGCGGGAG | 0.157 | 0.636 | 0.128 | 0.0535 |
| UUACCGAACG | 0.170 | 0.621 | 0.130 | 0 |
| UUAGCGGUAG | 0.405 | 0.606 | 0.0822 | 0 |
| UUCACGAGCG | 0.366 | 0.0712 | 0 | 0 |
| UUCUCGUGAG | 0.301 | 0.113 | 0 | 0.00684 |
| UUGGCGAGUG | 0.248 | 0.100 | 0 | 0 |
| UUGGCGUUGG | 0.392 | 0.0955 | 0 | 0 |
| UUGUCGAGGG | 0.131 | 0.166 | 0.0247 | 0 |
| UUUACGCUAG | 0.105 | 0.0955 | 0.00920 | 0 |
| UUUCCGUCGG | 0.314 | 0.0654 | 0.0169 | 0 |

Extract of 2 entries:

{"sequence": "UGAUCGCGGG", "pool": "0.275", "IR": 0.0894, "LM": 0, "Sys": 0}
{"sequence": "UAGGCGUCUU", "pool": "0.0131", "IR": 0, "LM": 0, "Sys": 0}